Pooled drug test results. Numbers come from NIAID ChemDB, via PubChem.

Common to all: tests in culture; species: HIV-1; measure: EC50

An empty or dashed field is not shown. Neighbouring rows are from separate reports. ECn: concentration that inhibits the pathogen or its effect by n%.

smiles	mutations	conditions	cell line	read by	strain	result
CCCc1cc(=O)oc2c3c(c4c(c12)OC(C)(C)C=C4)O[C@H](C)[C@@H](C)[C@@H]3O	RT-Y181C	-	CEM + CEM-SS	XTT	NL4-3	0.02 µM
CO[P@](=O)(c1cc(C)cc(/C=C/C#N)c1)c1c(C(N)=O)[nH]c2ccc(Cl)c(F)c12	K103N/Y181C	-	MT-2	-	Clinical isolate	0.002 µM
Cc1ccnc2c1NC(=O)c1cccnc1N2C1CC1	RT-D67N K70R T215Y K219Q	-	HT4 + HT4 LacZ-1	plaque count	RTMC	0.05 µM
CCc1c(C(=O)c2cc(C)cc(C)c2)n(CC2CC=CC2)c(=O)[nH]c1=O	-	clinical isolate	MM + M/M	cytopathic effect / XTT	BaL	0.0003 µM
Cc1ccnc2c1NC(=O)c1cccnc1N2C1CC1	RT-T139I	-	CEM + CEM-SS	XTT	Calanolide A-resistant (RT T139I)	0.03 µM
Cc1cc(S(N)(=O)=O)ccc1NC(=O)COc1ccc(Cl)cc1C(=O)c1cc(Cl)cc(C#N)c1	RT-K103N P225H	-	MAGI	β-galactosidase	NNRTI-resistant (RT K103N P225H)	0.0007 µM
O=c1[nH]cnc2c1ncn2[C@H]1CC[C@@H](CO)O1	RT-V118I M184V	-	HeLa	luciferase	Recombinant	5.8 µM
CCCc1cc(=O)oc2c3c(c4c(c12)OC(C)(C)C=C4)O[C@@H](C)[C@H](C)[C@@H]3O	-	-	AA5	XTT	IIIB	1.4 µM
CC(=O)N1CCC(C(=O)N(CCCN2CCC(Cc3ccc(C(N)=O)cc3)CC2)c2ccc(C)c(Cl)c2)CC1	-	-	U87 (CD4+ CXCR4+) + U87	luciferase	R5X4 subtype B_2 recombinant	>19 µM
N#Cc1cc2[nH]c3ccccc3c2n(-c2ccc([N+](=O)[O-])cc2)c1=O	RT-V118I M184V	-	HeLa	luciferase	Recombinant	0.58 µM
Cc1cn([C@H]2C[C@H](N=[N+]=[N-])[C@@H](CO)O2)c(=O)[nH]c1=O	-	-	CEMx174 + CEM	XTT	IIIB	0.03 µM
C#C[C@]1(CO)O[C@@H](n2cnc3c(N)nc(F)nc32)C[C@@H]1O	C162Y/M184I	-	MT4-GFP	fluorescence	Clinical isolate	0.00387 µM
Cc1cn([C@H]2C[C@H](N=[N+]=[N-])[C@@H](CO)O2)c(=O)[nH]c1=O	RT-M184V	-	HeLa	luciferase	NRTI resistant	0.0049 µM
CC(=O)c1ccc(C)cc1NC(C(N)=O)c1c(Cl)cccc1Cl	RT-T139I	-	CEM + CEM-SS	XTT	Calanolide A-resistant (RT T139I)	0.07 µM
Cc1ccnc2c1NC(=O)c1cccnc1N2C1CC1	RT-K70R Y181C	-	MT-4	-	-	<3 µM

The last 2 rows once more:

{"smiles": "CC(=O)c1ccc(C)cc1NC(C(N)=O)c1c(Cl)cccc1Cl", "mutations": "RT-T139I", "cell line": "CEM + CEM-SS", "read by": "XTT", "strain": "Calanolide A-resistant (RT T139I)", "result": "0.07 µM"}
{"smiles": "Cc1ccnc2c1NC(=O)c1cccnc1N2C1CC1", "mutations": "RT-K70R Y181C", "cell line": "MT-4", "result": "<3 µM"}